Experimental data as given in patent publication US11672846B2, “Soluble bacterial and fungal proteins and methods and uses thereof in inhibiting and dispersing biofilm” (priority 2014, dated 2023).

Tested on: P. aeruginosa Psl or Pel arabinose inducible cultures
Assay: Biofilm prevention by enzyme pre-coated on polystyrene or glass

B1: PslG31-442: soluble PslG glycosyl hydrolase construct, residues 31-442, P. aeruginosa PAO1, SEQ ID NO: 11 (protein, listed as Pseudomonas aeruginosa)
chain: EIQVLKAPRAVVWKDFLGVNAQFLWFSPERYNKQIDRLQDLGLEWVRLDLHWDRLETAEDQYQLASLDQLVKDLEARQLKSVFYLVGSARFITTAPFYSPFQDQYPPRDPEVFARRMAMLSQRYPSVAAWQVWNEPNLIGFWRPKADPEGYAKLLQASTIALRMVDPEKPVVSAGMAFFSEMPDGRTMFDALGHLGVESLGTIATYHPYTQLPEGNYPWNLDFVSHANQINRALRNAGVPAIWSTEWGWSAYKGPKELQDIIGVEGQADYVLRRLALMSALDYDRIFLFTLSDLDQRASVRDRDYGLLDLDANPKPVYLALQRFLKVTGPKLRPADPPVTEDLPDGSFSIGWTREDGRNVWLFWSARGGNVRLPKLKEATLHDPLSGKVTPLSGSDGLEVPVKSSLQMLVWE
Covalent attachment to glass
  duration of biofilm prevention on covalently linked glass: at least 8 days

B2: PelA47-303: soluble PelA hydrolase domain, residues 47-303, P. aeruginosa PAO1, SEQ ID NO: 12 (protein, listed as Pseudomonas aeruginosa)
chain: GGPSSVAFWYAERPPLAELSQFDWVVLEAAHLKPADVGYLKEQGSTPFAYLSVGEFDGDAAAIADSGLARGKSAVRNQAWNSQVMDLAAPSWRAHLLKRAAELRKQGYAGLFLDTLDSFQLQAEERREGQRRALASFLAQLHRQEPGLKLFFNRGFEVLPELPGVASAVAVESIHAGWDAAAGQYREVPQDDRDWLKGHLDALRAQGMPIVAIDYLPPERRDEARALAARLRSEGYVPFVSTPALDYLGVSDVEVQP
40 μg/mL coating, crystal violet
  biofilm in polystyrene wells pre-coated with protein: completely abrogated biofilm
